Assay results published in paper PMC4982137, “Mycobacterium tuberculosis H37Ra: a surrogate for the expression of conserved, multimeric proteins of M.tb H37Rv” (Microbial Cell Factories, 2016).

Tests used:
[1] = molecular target: T1, transferrin-biotin (human, UniProt P02787 20-698, biotin); assay: pull-down
T1 construct: also called Tf; human holo-transferrin

[2] = molecular target: T2, human transferrin (human, UniProt P02787 20-698); assay: far-Western, overlay or dot blot
T2 construct: also called Tf; human holo-transferrin

B1:  (complex)
chain 1: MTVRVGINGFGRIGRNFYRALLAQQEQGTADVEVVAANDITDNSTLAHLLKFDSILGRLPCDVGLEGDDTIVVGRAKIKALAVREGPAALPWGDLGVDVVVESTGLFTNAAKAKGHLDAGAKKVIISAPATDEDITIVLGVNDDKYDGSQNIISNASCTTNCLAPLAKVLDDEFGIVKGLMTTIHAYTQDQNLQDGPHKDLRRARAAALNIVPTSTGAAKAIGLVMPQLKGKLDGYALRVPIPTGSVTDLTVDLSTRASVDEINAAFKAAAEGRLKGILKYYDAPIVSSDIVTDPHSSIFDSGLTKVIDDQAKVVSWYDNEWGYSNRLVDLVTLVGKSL
chain 2: MTIRVGVNGFGRIGRNFYRALATQKAEGKNTDIEIVAVNDLTDNATLAHLLKFDSILGRLPQDVSLEGDDTIVIGDTKIKALEVKEGPAALPWGDLGVDVVVESTGIFTNAAKAKGHLDAGAKKVIISAPATDEDITIVLGVNDDKYDGSQNIISNASCTTNCLGPLAKVLNDEFGIVKGLMTTIHAYTQDQNLQDGPHKDLRRARAAALNIVPTSTGAAKAIGLVLPELKGKLDGYALRVPIPTGSVTDLTAELAKSASVEDINAAMKAAAEGPLKGILKYYDAPIVSSDIVTDPHSSLYDAGLTKVIDNQAKVVSWYDNEWGYSNRLADLVALVGKSL
B1: binds [1]; binds [2].
